Measurements: publication PMC7587356, “High-Throughput Screening for Inhibitors of the SARS-CoV-2 Protease Using a FRET-Biosensor” (Molecules, 2020)
Like-named read-outs stand apart in the source and are kept apart here.

Molecular target: SARS-CoV-2 3CLpro (Severe acute respiratory syndrome coronavirus 2, UniProt P0DTD1)

(±)-Atenolol gave a Replicate_1 of -0.6467, a Replicate_2 of 2.515 and a mean of 0.9342.
With S(-)-DS 121 hydrochloride the Replicate_2 (sheet LOPAC_screen_w_protease, primary screen with protease, replicate 2) was 1.663.
S(-)-UH-301 hydrochloride was tested, and the “Replicate_2 (LOPAC_screen_w_protease)” value (LOPAC1280 primary screen with protease, 5 µM compound, replicate 2) was 1.6636.
Substance Foliosidine has a Replicate_1 (sheet LOPAC_screen_w_protease, primary screen of LOPAC1280 at 5 µM with protease, replicate 1) of 4.819.
